Laboratory results as given in article PMC6504873, “High-throughput screening of the Plasmodium falciparum cGMP-dependent protein kinase identified a thiazole scaffold which kills erythrocytic and sexual stage parasites” (Scientific Reports, 2019).
Read-outs that look alike come from different tables or passages of the source.

Protein sequences, listed by entry. Tags and fused reporters are not part of them. Residues count along the entry.
UniProt Q8I5A6, 1-1944: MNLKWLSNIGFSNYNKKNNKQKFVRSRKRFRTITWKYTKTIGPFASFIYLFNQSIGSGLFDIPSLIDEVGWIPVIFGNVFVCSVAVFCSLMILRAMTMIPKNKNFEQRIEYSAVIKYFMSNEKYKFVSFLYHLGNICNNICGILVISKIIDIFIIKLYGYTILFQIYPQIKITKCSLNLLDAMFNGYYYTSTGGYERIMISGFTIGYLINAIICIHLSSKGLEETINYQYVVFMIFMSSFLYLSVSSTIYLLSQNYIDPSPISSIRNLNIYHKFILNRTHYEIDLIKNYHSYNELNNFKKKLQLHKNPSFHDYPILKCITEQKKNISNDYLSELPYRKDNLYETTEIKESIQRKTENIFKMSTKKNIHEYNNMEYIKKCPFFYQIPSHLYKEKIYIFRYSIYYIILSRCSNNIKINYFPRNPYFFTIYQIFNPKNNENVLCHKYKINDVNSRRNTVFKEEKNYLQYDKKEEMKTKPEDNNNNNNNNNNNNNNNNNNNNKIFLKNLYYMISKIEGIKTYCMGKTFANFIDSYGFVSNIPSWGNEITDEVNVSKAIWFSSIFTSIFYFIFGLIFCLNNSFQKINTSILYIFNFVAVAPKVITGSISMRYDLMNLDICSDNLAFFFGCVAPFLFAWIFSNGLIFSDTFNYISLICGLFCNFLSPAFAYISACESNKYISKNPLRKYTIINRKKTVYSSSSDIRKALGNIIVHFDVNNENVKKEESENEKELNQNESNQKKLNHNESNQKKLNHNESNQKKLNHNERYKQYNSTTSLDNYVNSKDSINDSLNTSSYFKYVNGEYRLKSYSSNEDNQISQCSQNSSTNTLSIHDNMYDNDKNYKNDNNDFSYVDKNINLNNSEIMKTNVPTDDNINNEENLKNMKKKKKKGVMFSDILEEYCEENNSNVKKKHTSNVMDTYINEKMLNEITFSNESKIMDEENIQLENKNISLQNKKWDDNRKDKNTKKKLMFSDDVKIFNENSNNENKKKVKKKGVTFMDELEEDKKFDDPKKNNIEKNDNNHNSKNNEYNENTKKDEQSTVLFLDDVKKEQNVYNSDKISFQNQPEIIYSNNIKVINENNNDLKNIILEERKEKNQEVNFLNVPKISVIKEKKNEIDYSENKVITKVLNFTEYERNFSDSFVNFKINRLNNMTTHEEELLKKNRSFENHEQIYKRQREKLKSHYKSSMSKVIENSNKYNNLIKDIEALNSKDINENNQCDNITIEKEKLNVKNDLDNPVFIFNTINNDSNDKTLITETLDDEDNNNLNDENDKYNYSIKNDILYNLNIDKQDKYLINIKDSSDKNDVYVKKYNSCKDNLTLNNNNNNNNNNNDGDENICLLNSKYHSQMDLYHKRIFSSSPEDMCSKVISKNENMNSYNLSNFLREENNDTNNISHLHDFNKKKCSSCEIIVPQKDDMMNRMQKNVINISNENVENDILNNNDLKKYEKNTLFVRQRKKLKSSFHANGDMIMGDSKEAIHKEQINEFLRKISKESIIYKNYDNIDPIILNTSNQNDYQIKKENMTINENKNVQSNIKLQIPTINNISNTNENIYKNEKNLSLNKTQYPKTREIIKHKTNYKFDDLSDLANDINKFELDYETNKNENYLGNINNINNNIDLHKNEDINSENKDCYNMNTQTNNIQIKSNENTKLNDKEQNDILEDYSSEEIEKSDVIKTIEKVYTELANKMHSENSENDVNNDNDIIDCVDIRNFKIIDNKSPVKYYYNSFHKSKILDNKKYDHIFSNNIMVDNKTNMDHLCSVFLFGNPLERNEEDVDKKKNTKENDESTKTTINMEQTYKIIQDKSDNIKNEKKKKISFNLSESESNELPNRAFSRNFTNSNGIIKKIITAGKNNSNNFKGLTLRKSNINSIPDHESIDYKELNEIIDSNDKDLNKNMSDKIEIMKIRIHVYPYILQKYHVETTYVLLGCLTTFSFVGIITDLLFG
UniProt Q8I719, whole entry: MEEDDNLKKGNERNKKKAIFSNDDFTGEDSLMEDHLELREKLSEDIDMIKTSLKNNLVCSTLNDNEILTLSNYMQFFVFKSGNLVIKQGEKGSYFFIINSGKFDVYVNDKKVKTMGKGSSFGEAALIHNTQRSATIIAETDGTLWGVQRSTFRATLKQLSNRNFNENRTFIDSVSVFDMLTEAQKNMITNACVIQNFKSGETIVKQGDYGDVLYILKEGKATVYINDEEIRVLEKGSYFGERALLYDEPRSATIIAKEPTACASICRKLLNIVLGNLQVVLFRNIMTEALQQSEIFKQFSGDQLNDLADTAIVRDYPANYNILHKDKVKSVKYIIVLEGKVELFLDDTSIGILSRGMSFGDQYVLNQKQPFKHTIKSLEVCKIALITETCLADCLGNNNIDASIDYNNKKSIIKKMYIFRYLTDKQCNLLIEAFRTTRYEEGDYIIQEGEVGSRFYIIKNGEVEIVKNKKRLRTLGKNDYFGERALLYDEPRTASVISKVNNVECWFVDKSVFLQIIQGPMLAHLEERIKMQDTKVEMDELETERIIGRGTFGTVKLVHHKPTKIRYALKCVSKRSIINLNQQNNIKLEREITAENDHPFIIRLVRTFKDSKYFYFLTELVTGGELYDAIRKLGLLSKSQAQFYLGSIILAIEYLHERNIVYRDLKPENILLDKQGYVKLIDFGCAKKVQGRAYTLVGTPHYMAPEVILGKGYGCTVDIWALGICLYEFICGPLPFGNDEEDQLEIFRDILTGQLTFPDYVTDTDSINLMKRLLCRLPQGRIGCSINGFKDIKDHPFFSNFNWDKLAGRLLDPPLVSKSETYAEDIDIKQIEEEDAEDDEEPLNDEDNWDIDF
UniProt Q8I719, whole entry T618Q: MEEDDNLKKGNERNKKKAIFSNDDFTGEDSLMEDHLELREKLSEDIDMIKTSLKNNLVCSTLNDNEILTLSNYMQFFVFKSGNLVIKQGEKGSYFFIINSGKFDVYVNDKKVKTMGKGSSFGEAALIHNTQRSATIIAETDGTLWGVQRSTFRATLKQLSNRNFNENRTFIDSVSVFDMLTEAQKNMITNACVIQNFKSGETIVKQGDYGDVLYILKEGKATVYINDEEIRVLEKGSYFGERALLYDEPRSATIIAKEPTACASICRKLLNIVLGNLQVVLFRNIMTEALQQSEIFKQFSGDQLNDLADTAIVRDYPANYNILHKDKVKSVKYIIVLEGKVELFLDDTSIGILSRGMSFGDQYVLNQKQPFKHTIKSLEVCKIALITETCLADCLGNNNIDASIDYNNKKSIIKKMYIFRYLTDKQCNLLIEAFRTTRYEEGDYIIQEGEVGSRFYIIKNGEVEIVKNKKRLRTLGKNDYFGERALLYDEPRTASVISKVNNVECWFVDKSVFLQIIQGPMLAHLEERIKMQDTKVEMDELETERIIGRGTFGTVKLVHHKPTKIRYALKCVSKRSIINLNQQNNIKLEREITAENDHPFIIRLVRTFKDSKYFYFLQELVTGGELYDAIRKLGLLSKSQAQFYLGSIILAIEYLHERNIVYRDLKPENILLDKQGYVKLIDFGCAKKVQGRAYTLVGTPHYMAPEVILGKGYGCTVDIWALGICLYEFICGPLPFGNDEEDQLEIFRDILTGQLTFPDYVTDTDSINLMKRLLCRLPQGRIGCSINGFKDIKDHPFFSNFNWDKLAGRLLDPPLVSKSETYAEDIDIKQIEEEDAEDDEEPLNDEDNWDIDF
UniProt Q13976, whole entry: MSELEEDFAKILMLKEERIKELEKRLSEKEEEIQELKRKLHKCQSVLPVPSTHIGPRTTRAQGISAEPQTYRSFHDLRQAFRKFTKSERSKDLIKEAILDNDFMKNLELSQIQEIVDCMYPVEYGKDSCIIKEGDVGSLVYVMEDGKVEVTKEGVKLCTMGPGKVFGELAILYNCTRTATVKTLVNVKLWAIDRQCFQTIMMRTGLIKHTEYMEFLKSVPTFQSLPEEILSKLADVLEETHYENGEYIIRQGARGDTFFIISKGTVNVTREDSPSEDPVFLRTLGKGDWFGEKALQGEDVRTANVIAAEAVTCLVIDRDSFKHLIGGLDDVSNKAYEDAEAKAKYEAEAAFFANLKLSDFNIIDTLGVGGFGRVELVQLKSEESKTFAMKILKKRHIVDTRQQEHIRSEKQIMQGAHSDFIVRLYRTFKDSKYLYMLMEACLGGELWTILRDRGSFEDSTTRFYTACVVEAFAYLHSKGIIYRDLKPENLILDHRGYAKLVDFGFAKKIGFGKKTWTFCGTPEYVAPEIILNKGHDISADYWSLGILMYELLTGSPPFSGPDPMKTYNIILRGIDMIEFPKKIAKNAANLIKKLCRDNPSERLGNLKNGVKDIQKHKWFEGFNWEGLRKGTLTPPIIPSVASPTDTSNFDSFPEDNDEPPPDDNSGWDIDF
UniProt Q8I5D5, 1-1057: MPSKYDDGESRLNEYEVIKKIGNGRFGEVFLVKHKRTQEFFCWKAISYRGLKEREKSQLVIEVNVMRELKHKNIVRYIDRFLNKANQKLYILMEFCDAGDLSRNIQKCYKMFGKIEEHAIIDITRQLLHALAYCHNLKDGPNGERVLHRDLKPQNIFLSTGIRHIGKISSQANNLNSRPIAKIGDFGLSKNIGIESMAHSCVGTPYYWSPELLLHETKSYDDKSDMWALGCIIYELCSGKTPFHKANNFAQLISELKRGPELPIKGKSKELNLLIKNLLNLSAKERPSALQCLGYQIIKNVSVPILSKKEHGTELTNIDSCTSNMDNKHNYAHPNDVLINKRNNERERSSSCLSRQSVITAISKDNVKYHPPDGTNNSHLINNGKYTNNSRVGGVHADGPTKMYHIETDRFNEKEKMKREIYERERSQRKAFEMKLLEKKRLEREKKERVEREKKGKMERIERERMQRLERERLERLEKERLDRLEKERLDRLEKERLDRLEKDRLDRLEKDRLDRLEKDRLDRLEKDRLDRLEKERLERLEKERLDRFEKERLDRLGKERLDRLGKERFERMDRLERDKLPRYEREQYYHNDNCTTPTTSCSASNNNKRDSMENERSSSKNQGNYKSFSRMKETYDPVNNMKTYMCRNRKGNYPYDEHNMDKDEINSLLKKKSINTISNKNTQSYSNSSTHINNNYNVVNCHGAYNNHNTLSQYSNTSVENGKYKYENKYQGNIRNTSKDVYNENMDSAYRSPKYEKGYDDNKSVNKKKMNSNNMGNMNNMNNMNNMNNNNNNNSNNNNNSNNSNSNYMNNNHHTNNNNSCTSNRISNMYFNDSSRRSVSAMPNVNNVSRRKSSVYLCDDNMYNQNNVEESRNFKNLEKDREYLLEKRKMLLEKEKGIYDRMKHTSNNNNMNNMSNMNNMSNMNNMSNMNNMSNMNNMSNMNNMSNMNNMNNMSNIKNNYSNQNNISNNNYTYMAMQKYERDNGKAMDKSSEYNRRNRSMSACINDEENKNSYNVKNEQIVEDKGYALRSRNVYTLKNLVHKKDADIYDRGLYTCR
UniProt P62344, whole entry: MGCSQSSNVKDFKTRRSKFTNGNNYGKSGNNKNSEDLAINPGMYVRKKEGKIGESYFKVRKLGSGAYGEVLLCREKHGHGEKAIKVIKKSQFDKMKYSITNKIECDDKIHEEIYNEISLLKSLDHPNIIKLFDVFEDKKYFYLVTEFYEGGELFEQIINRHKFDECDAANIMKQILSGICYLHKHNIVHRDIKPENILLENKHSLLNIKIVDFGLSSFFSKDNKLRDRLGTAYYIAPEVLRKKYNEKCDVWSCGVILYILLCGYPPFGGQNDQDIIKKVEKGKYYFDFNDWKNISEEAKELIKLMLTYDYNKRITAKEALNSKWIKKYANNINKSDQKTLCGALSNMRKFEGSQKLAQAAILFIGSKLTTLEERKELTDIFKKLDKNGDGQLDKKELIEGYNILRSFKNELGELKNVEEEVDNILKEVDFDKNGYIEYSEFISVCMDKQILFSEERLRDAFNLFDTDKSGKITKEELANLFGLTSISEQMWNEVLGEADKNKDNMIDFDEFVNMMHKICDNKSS
UniProt Q8IHZ9, whole entry: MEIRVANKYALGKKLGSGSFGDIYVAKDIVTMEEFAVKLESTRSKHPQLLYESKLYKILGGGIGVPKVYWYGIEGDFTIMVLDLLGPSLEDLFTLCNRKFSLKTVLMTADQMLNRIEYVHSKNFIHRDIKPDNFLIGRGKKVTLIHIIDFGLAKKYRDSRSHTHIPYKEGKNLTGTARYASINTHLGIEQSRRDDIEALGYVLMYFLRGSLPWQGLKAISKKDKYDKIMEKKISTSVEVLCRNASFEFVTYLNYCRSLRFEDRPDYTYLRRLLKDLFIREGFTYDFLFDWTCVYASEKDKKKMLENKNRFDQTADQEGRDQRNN

Key:
P. falciparum clone 3D7A = experiment: Whole cell parasite growth inhibition assay (LDH), WT parasites
PF3D7_1231400, PFL1515c = PF3D7_1231400, PFL1515c (Plasmodium falciparum, UniProt Q8I5A6); conditions: for relative abundance, compound competition 20 uM: relative to vehicle control
PKG (PF3D7_1436600) = PKG (PF3D7_1436600) (Plasmodium falciparum, UniProt Q8I719); conditions: for relative abundance, compound competition 20 uM: relative to vehicle control
TQ P.falciparum = experiment: Whole cell parasite growth inhibition assay, TQ parasites
TQ PfPKG (PfPKG_T618Q) = TQ PfPKG (PfPKG_T618Q) (Plasmodium falciparum, UniProt Q8I719, T618Q); conditions: read-out: PfPKG_T618Q; Table 2, gatekeeper mutant
[1] = tested on: P. falciparum (NF54 isolate) male gametocytes; experiment: Dual gamete activation assay, male (exflagellation); conditions: read-out: male (gamete formation); male gametes, 48 h incubation
WT PfPKG = WT PfPKG (Plasmodium falciparum, UniProt Q8I719); conditions: read-out: WT PfPKG
[2] = tested on: P. falciparum (NF54 isolate) female gametocytes; experiment: Dual gamete activation assay, female (Pfs25 expression); conditions: read-out: female (gamete formation); female gametes, 48 h incubation
HuPKGIα = HuPKGIα (Homo sapiens, UniProt Q13976); experiment: Kinase Glo enzymatic assay, human PKG; assay type: biochemical; conditions: read-out: human PKG; Table 2
NEK1 = NEK1 (Plasmodium falciparum, UniProt Q8I5D5); conditions: maximum concentration 20 µM
CDPK1 = CDPK1 (Plasmodium falciparum, UniProt P62344)
CK1 = CK1 (Plasmodium falciparum, UniProt Q8IHZ9); conditions: maximum concentration 20 µM
[3] = target: putative protein kinase Pf3D7_0926100 (Plasmodium falciparum, UniProt Q8I2P8); conditions: maximum concentration 20 µM
CDPK4 = CDPK4 (Plasmodium falciparum, UniProt Q8IBS5); conditions: maximum concentration 20 µM
[4] = read-out: WT P.falciparum 48h, 48h
[5] = read-out: WT P.falciparum 72h, 72h
[6] = read-out: whole cell 48 h, Table 2, 48 h
[7] = read-out: whole cell 72 h, Table 2, 72 h
[8] = read-out: TQ P.falciparum 48h, 48h
[9] = read-out: TQ P.falciparum 72h, 72h

SMILES | EC50 (P. falciparum clone 3D7A; [4]) | EC50 (P. falciparum clone 3D7A; [5]) | EC50 (P. falciparum clone 3D7A; [6]) | EC50 (P. falciparum clone 3D7A; [7]) | relative abundance, compound competition 0.08 uM (PF3D7_1231400, PFL1515c) | relative abundance, compound competition 0.74 uM (PF3D7_1231400, PFL1515c) | relative abundance, compound competition 2.22 uM (PF3D7_1231400, PFL1515c) | relative abundance, compound competition 6.67 uM (PF3D7_1231400, PFL1515c) | relative abundance, compound competition 20 uM (PF3D7_1231400, PFL1515c) | relative abundance, compound competition 0.08 uM (PKG (PF3D7_1436600)) | relative abundance, compound competition 0.74 uM (PKG (PF3D7_1436600)) | relative abundance, compound competition 2.22 uM (PKG (PF3D7_1436600)) | relative abundance, compound competition 6.67 uM (PKG (PF3D7_1436600)) | relative abundance, compound competition 20 uM (PKG (PF3D7_1436600)) | relative abundance, compound competition 0.25 uM (PKG (PF3D7_1436600)) | EC50 (TQ P.falciparum; [8]) | EC50 (TQ P.falciparum; [9]) | IC50 (TQ PfPKG (PfPKG_T618Q)) | IC50 (WT PfPKG; Table 2) | IC50 (HuPKGIα) | further results
CC1(c2nc(-c3cccc(NS(=O)(=O)c4ccoc4)c3F)c(-c3ccnc(N)n3)s2)CCNCC1 | 0.188 µM | 0.167 µM | 0.19 µM | 0.17 µM | 0.0426 | 0.019 | 0.0163 | 0.00655 | 0.0139 | 0.02 | 0.013 | 0.0114 | 0.0126 | 0.0137 | 0.0123 | > 5 µM | > 5 µM | 0.5 µM | 0.0008 µM | > 1 µM | relative abundance, compound competition 0.25 uM (PF3D7_1231400, PFL1515c): 0.0157; EC50 [1]: 0.5 µM; IC50 (WT PfPKG; Supplementary Table 2): 0.00081 µM; EC50 [2]: 0.8 µM
Nc1nccc(-c2sc(C3CCNCC3)nc2-c2cccc(NS(=O)(=O)c3ccoc3)c2F)n1 | 0.184 µM | 0.135 µM | 0.18 µM | 0.14 µM | 0.05 | 0.00253 | 0.00341 | 0.0213 | 0.00607 | 0.0164 | 0.0108 | 0.0124 | 0.0107 | 0.0123 | 0.012 | > 5 µM | > 5 µM | > 1 µM | 0.0009 µM | > 1 µM | relative abundance, compound competition 0.25 uM (PF3D7_1231400, PFL1515c): 0.0229; EC50 [1]: 2 µM; IC50 (WT PfPKG; Supplementary Table 2): 0.00093 µM; EC50 [2]: 2.4 µM
Nc1nccc(-c2sc(N3CCNCC3)nc2-c2cccc(NS(=O)(=O)c3ccoc3)c2Cl)n1 | 3.4 µM | 2.94 µM | 3.4 µM | 2.9 µM | – | – | – | – | – | 0.0181 | 0.0119 | 0.0128 | 0.01 | 0.01 | 0.0106 | > 5 µM | > 5 µM | > 1 µM | 0.0011 µM | > 1 µM | NEK1 affected (competed) on Kinobeads (NEK1): not; pIC50 (Kinobeads competition) (CDPK1): 7.05; relative abundance, compound competition 0.08 uM (CDPK1; 0.08 uM): 0.52; relative abundance, compound competition 0.74 uM (CDPK1; 0.74 uM): 0.15; relative abundance, compound competition 2.22 uM (CDPK1; 2.22 uM): 0.10; relative abundance, compound competition 6.67 uM (CDPK1; 6.67 uM): 0.0371; relative abundance, compound competition 20 uM (CDPK1; 20 uM, relative to vehicle control): 0.0282; relative abundance, compound competition 0.25 uM (CDPK1; […]): 0.33; IC50 (CDPK1; read-out: IC50 (Kinobeads competition)): 0.09 µM; CK1 affected (competed) on Kinobeads (CK1): not; Pf3D7_0926100 affected (competed) on Kinobeads [3]: not; CDPK4 affected (competed) on Kinobeads (CDPK4): not
